Experimental data reported in PMC9218516, “SifR is an Rrf2-family quinone sensor associated with catechol iron uptake in Streptococcus pneumoniae D39” (The Journal of Biological Chemistry, 2022).
Construct, isoform or probe ends are uncertain for at least one entry. Weaker means in comparison with the reference protein, sequence or condition of that experiment. Protein sequences can lack the tags named with them.

Legend:
[1] = biological target: T1, SifR WT (Streptococcus pneumoniae D39) (UniProt A0A0H2ZNG7); test: fluorescence anisotropy (dissociation); details: no TCEP, fluorescein-dT at 5' position 1 of strand 1, 25 mM Tris-HCl, 150 mM NaCl, 2 mM EDTA, 2 mM TCEP, pH 7.5, 25 C, ~10 nM labeled DNA (Fig S8: 50 mM Tris-HCl, 150 mM NaCl, pH 7.4, 25 C), recombinant protein, protein details: His6 removed by TEV, tag-free, label: 5'-fluorescein
T1 sequence (looked up, limits assumed): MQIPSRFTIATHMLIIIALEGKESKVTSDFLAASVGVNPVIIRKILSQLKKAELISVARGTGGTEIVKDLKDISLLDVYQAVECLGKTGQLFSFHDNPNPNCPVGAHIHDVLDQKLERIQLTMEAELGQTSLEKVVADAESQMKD

[2] = biological target: T1, SifR WT (Streptococcus pneumoniae D39); test: fluorescence anisotropy; details: BQ-adducted protein, non-saturable, nonspecific; fluorescein-dT at 5' position 1 of strand 1; 25 mM Tris-HCl, 150 mM NaCl, 2 mM EDTA, 2 mM TCEP, pH 7.5, 25 C, ~10 nM labeled DNA (Fig S8: 50 mM Tris-HCl, 150 mM NaCl, pH 7.4, 25 C); recombinant protein; protein details: His6 removed by TEV, tag-free; label: 5'-fluorescein

Measured: binding result

TATAGTTGTAATAATAATAATTACAACGAG (double strand) [F-catE O/P]
binds more weakly: [1]; 0.3 uM BQ added to complex | [1]; 6 uM adrenochrome added to complex | [2]
